Results of unrelated studies side by side (data: NIAID ChemDB).

Shared fields: growth or infection tests; species: Mycobacterium tuberculosis

Conditions beyond the fields shown may differ between rows.

structure,strain,endpoint,tested at,read by,value
COc1cccc(NC(=O)c2cnccn2)c1,ATCC 27294,MIC,,resazurin,>100 µg/mL
CO[C@H]1/C=C/O[C@@]2(C)Oc3c(C)c(O)c4c(O)c(c(/C=N/N5CCC(N(C)C)CC5)c(O)c4c3C2=O)NC(=O)/C(C)=C\C=C\[C@H](C)[C@H](O)[C@@H](C)[C@@H](O)[C@@H](C)[C@H](OC(C)=O)[C@@H]1C,H37Rv,EC50,,,2 µg/mL
Fc1ccc(CNCC2CCCC(CNCc3ccc(F)cc3)C2)cc1,H37Rv,inhibition,20 µM,,0%
O=C(Nc1ccccc1[N+](=O)[O-])c1cnccn1,ATCC 27294,MIC,,resazurin,>100 µg/mL
S=C(S)NCCN1CCNC1=S,H37Rv,inhibition,6.25 µg/mL,resazurin,57%
CO[C@H]1/C=C/O[C@@]2(C)Oc3c(C)c(O)c4c(O)c(cc(O)c4c3C2=O)NC(=O)/C(C)=C\C=C\[C@H](C)[C@H](O)[C@@H](C)[C@@H](O)[C@@H](C)[C@H](OC(C)=O)[C@@H]1C,Aoyama B (isoniazid-resistant),MIC,,,6.3 µg/mL
Fc1ccc(NCc2cc3ccccc3nc2Cl)cc1Cl,H37Ra,MIC,,,>400 µg/mL
CC(=O)NC[C@H]1CN(c2ccc(N3CCOCC3)c(F)c2)C(=O)O1,Clinical isolate BRF 27,MIC,,resazurin,0.5 µg/mL
N/C(=N\N=C\c1ccc([N+](=O)[O-])cc1)c1ccccn1,H37Rv,MIC,,,500 µg/mL
NC(=O)c1csc([C@@H]2O[C@H](COP(=O)(O)O)[C@@H](O)[C@H]2O)n1,H37Rv,inhibition,12.5 µg/mL,BACTEC,-4%
Cc1ccc2cccnc2c1O,M 607,MIC50,,,1–5 µg/mL
O=C(O)c1ccc(Sc2nnc(N3CCN(c4nc(N5CCN(c6ccccc6)CC5)c5ccccc5n4)CC3)o2)cc1,H37Rv,MIC,,agar / visual reading,100 µg/mL
O=Cc1ccc2cccnc2c1O,H37Rv,MIC50,,,>10 µg/mL
CCOC(=O)/C=C1\Nc2cc(Cl)c(Cl)cc2NC1=O,H37Rv,inhibition,6.25 µg/mL,BACTEC,0%
Cc1ccc2c(c1)NC(c1ccncc1)S2,H37Rv,MIC,,,50 µg/mL
C=C1C(=O)OC2C1C(OC(=O)/C(C)=C/C)CC1(CO1)C1C(O)C=C(C)C21O,H37Rv,inhibition,12.8 µg/mL,BACTEC,32%
N/C(=N/N=C/c1ccc(Br)cc1)c1ccccn1,1454 (THC-resistant),MIC,,,32 µg/mL
NC(=O)Nc1ccc2[nH]c(=O)c3ccccc3c2c1,H37Rv,MIC bound,,BACTEC,>12.5 µg/mL
Cn1cccc2nc(CC(=O)NN)nc1-2,109,MIC,,,250 µg/mL
CO[C@H]1/C=C/O[C@@]2(C)Oc3c(C)c(O)c4c(O)c(c(/C=N/N5C(C)CN(C)CC5C)c(O)c4c3C2=O)NC(=O)/C(C)=C\C=C\[C@H](C)[C@H](O)[C@@H](C)[C@@H](O)[C@@H](C)[C@H](OC(C)=O)[C@@H]1C,H37Rv,EC50,,,0.5 µg/mL
Cc1ccc(/C=C(\C(N)=S)c2nc3cccnc3n2C)c(C)c1,H37Rv,MIC,,,31.2 µg/mL
COc1ccc(/C=C/C=N/NC(=O)c2ccncc2)cc1,H37Rv,MIC90,,,0.2 µg/mL
N/C(=N/N=C/c1cccc(F)c1)c1ccccn1,1454 (THC-resistant),MIC,,,64 µg/mL
CC(=O)c1ccccc1NNC(=O)N1CCN(c2nc(N3CCN(c4ccccc4)CC3)c3ccccc3n2)CC1,H37Rv,MIC,,BACTEC / fluorescence,>6.25 µg/mL
Cc1ccc(NC(=O)N2CC(C)OC(C)C2)cc1[N+](=O)[O-],H37Rv,MIC bound,,BACTEC,>12.5 µg/mL
c1ccc(C2Nc3ccccc3S2)cc1,H37Rv,MIC,,,200 µg/mL
CNC(=S)N(Cc1cc2ccccc2nc1Cl)c1ccc(F)c(Cl)c1,H37Ra,MIC,,,50 µg/mL
O=NNc1cnc(Br)cn1,H37Rv,MIC bound,,BACTEC,>12.5 µg/mL
NNC(=O)c1ccncc1,H37Ra,MIC,,resazurin,0.0062–0.012 µg/mL
Cn1cc(NC(=O)Nc2cc(C(=O)Nc3cc(C(=O)Nc4ccc(S(=O)(=O)O)c5cc(S(=O)(=O)O)ccc45)n(C)c3)n(C)c2)cc1C(=O)Nc1cc(C(=O)Nc2ccc(S(=O)(=O)O)c3cc(S(=O)(=O)O)ccc23)n(C)c1,H37Rv,inhibition,12.5 µg/mL,BACTEC,0%
CCC1(c2ccccn2)Nc2ccccc2S1,H37Rv,MIC,,,>200 µg/mL
O=C(O)c1cc(Nc2nc(Cl)nc(Cl)n2)ccc1-c1c2ccc(=O)cc-2oc2cc(O)ccc12,H37Rv,MIC bound,,BACTEC,>12.5 µg/mL
O=Cc1ccc(NNC(=O)N2CCN(c3nc(N4CCN(c5ccccc5)CC4)c4ccccc4n3)CC2)cc1,H37Rv,MIC,,BACTEC / fluorescence,>6.25 µg/mL
Cc1ccc(O)c2ncccc12,M 607,MIC50,,,1–5 µg/mL
N/C(=N/N=C/c1ccccc1Br)c1ccccn1,H37Rv,MIC,,,8 µg/mL
CC(C)=CCC/C(C)=C/COc1ccc(/C=C2\C(=O)N(O)[C@@H](C)C(=O)N2O)cc1,INH-r,MIC,,,>12.5 µg/mL
CO[C@H]1/C=C/O[C@@]2(C)Oc3c(C)c(O)c4c(O)c(c(/C=N/N5CCOCC5)c(O)c4c3C2=O)NC(=O)/C(C)=C\C=C\[C@H](C)[C@H](O)[C@@H](C)[C@@H](O)[C@@H](C)[C@H](OC(C)=O)[C@@H]1C,H37Rv,EC50,,,0.2 µg/mL
NC(=S)N(Cc1cc2ccccc2nc1Cl)c1ccccc1,H37Ra,MIC,,,200 µg/mL
O=C(O)c1cc(O)c2ncccc2c1,H37Rv,MIC50,,,5–10 µg/mL
CC(C)c1cc(=O)c2cc3[nH]c4ccccc4c3cc2[nH]1,H37Rv,inhibition,12.5 µg/mL,BACTEC,99%
COc1ccc(NC(=O)c2cnccn2)cc1,ATCC 27294,MIC,,resazurin,>100 µg/mL
COc1ccccc1/C=N/N=C(/N)c1ccccn1,H37Rv,MIC,,,16 µg/mL
Fc1ccc(-c2csc(CN=Cc3cn(Cc4ccc(Cl)cc4Cl)c4ccccc34)n2)cc1,H37Rv,MIC,,agar,>12.5 µg/mL
CO[C@H]1/C=C/O[C@@]2(C)Oc3c(C)c(O)c4c(O)c(c(C=Nc5cccc(C)c5)c(O)c4c3C2=O)NC(=O)/C(C)=C\C=C\[C@H](C)[C@H](O)[C@@H](C)[C@@H](O)[C@@H](C)[C@H](OC(C)=O)[C@@H]1C,H37Rv,EC50,,,5 µg/mL
[Cl][Fe][Cl].c1cnc2c(c1)ccc1cccnc12,H37Rv,inhibition,12.5 µg/mL,BACTEC,98%
O=C(NNc1ccccc1)N1CCN(c2nc(N3CCN(c4ccccc4)CC3)c3ccccc3n2)CC1,H37Rv,MIC,,BACTEC / fluorescence,>6.25 µg/mL
CC(/C(N)=N/O)c1nc2ncccc2[nH]1,109,MIC,,,500 µg/mL
Nc1nc(N)c(N=Nc2ccc(C(=O)O)cc2)c(=O)[nH]1,H37Rv,inhibition,12.5 µg/mL,BACTEC,-3%
NC(=O)c1cnccn1,H37Rv,MIC,,BACTEC / fluorescence,3.12 µg/mL
COC(=O)c1cc(CC2Cc3cc4c(cc3C2=O)CCC4)cc2c1CCC2,H37Rv,inhibition,12.5 µg/mL,BACTEC,81%
COc1cccc(OC)c1Nc1nc(-c2ccc(F)cc2)cs1,H37Rv,MIC,,agar,>12.5 µg/mL
CO[C@H]1/C=C/O[C@@]2(C)Oc3c(C)c(O)c4c(O)c(c(/C=N/N5CCN(C6CCCC6)CC5)c(O)c4c3C2=O)NC(=O)/C(C)=C\C=C\[C@H](C)[C@H](O)[C@@H](C)[C@@H](O)[C@@H](C)[C@H](OC(C)=O)[C@@H]1C,29 isolates,MIC50,,,0.06 µg/mL
COc1ccc(-c2cc(-c3ccco3)c(C#N)c(=S)n2C2OC(COC(C)=O)C(OC(C)=O)C(OC(C)=O)C2OC(C)=O)cc1,H37Rv,MIC bound,,BACTEC,>12.5 µg/mL
Cn1nc(-c2ccc(C(=O)Nc3ccc(Cl)cc3)s2)cc1C(F)(F)F,H37Rv,MIC90,,low oxygen,2.9 µM
Cc1cn([C@H]2C[C@H](O)[C@@H](CO)O2)c(=O)n2nnnc12,H37Rv,MIC bound,,resazurin,>6.25 µg/mL
COc1cc(C2=NN(C(=O)COc3ccc4ccccc4c3)[C@H](Cc3ccccc3)C2)c(C)cc1OCC(=O)O,H37Rv,MIC,,,>6.25 µg/mL
Cc1cn([C@H]2C[C@H](CN=[N+]=[N-])[C@@H](CO)O2)c(=O)[nH]c1=O,H37Rv,MIC,,,>6.25 µg/mL
c1ccc(-c2nnc(SCCC3OCCCO3)o2)cc1,H37Rv,MIC90,,low oxygen,6.4 µM
O=C(Nc1cccc(Cl)c1)c1cnccn1,ATCC 27294,MIC,,resazurin,>100 µg/mL
Cc1ccc(/C=C(\C(N)=S)c2nc3ncccc3[nH]2)c(C)c1,H37Rv,MIC,,,15.6 µg/mL
COc1ccc(CNCC2CCCC(CNCc3ccc(OC)cc3)C2)cc1,H37Rv,inhibition,20 µM,,0%
O=[N+]([O-])c1ccc(NCc2cc3ccccc3nc2Cl)cc1,H37Ra,MIC,,,>400 µg/mL
CO[C@H]1/C=C/O[C@@]2(C)Oc3c(C)c(O)c4c(O)c(c(/C=N/N5CCCC5)c(O)c4c3C2=O)NC(=O)/C(C)=C\C=C\[C@H](C)[C@H](O)[C@@H](C)[C@@H](O)[C@@H](C)[C@H](OC(C)=O)[C@@H]1C,H37Rv,EC50,,,0.1 µg/mL
Cc1cc(O)c2c(c1)C(=O)C=CC2=O,,MIC,,,0.5 µg/mL
O=C(O)c1ccc(NNC(=O)N2CCN(c3nc(N4CCN(c5ccccc5)CC4)c4ccccc4n3)CC2)cc1,H37Rv,inhibition,6.25 µg/mL,BACTEC / fluorescence,0%
CN(C)C(=S)SCNc1ccc(NCSC(=S)N(C)C)cc1,H37Rv,MIC,,BACTEC,32 µg/mL
Clc1cccc2c1NC(c1ccccn1)S2,H37Rv,MIC,,,3.1 µg/mL
CCCCCCOc1ccc(/C=N/NC(=O)c2ccncc2)cc1,H37Rv,MIC90,,,0.39 µg/mL
NNC(=O)c1nnc(N)o1,H37Rv,inhibition,12.5 µg/mL,BACTEC,4%
Cc1cccc(NC(=O)c2cnccn2)c1,ATCC 27294,MIC,,resazurin,>100 µg/mL
Clc1cccc(Cl)c1CNCC1CCCC(CNCc2c(Cl)cccc2Cl)C1,H37Rv,inhibition,20 µM,,0%
C/[N+]([O-])=C\c1ncc([N+](=O)[O-])n1CCO,H37Rv,MIC bound,,resazurin,>6.25 µg/mL
NC(N)=S,H37Rv,MIC,,,>3290 µM
O=C(N/N=C/C=C/c1ccccc1[N+](=O)[O-])c1ccncc1,Erdman,MIC90,,,0.25 µg/mL
CC(C)COc1ccc(NC(=S)Nc2ccc(-c3ccccn3)cc2)cc1,H37RV (PAS-R),MIC,,,>50 µg/mL
FC(F)(F)c1ccc2c(c1)NC(c1cccnc1)S2,H37Rv,MIC,,,3.1 µg/mL
N/C(=N/N=C/c1cccc(Br)c1)c1ccccn1,H37Rv,MIC,,,64 µg/mL
O=S(=O)([O-])C1CC2C(c3ccccc31)N1ON2O1.[Na+],H37Rv,MIC bound,,BACTEC,>12.5 µg/mL
COc1cccc2c1NC(c1cccnc1)S2,H37Rv,MIC,,,0.16 µg/mL
N/C(=N/N=C/c1ccccc1)c1ccccn1,1814 (THC-resistant),MIC,,,32 µg/mL
CN1c2ccccc2SC1c1ccccn1,H37Rv,MIC,,,12.5 µg/mL
CO[C@H]1/C=C/O[C@@]2(C)Oc3c(C)c(O)c4c(O)c(c(/C=N/N5CCN(C)CC5)c(O)c4c3C2=O)NC(=O)/C(C)=C\C=C\[C@H](C)[C@H](O)[C@@H](C)[C@@H](O)[C@@H](C)[C@H](OC(C)=O)[C@@H]1C,H37Rv ATTC 27294,MIC,,resazurin,0.06 µg/mL
Clc1ccc2c(c1)NC(c1ccccn1)S2,H37Rv,MIC,,,0.8 µg/mL
COc1ccccc1NNC(=O)N1CCN(c2nc(N3CCN(c4ccccc4)CC3)c3ccccc3n2)CC1,H37Rv,MIC,,BACTEC / fluorescence,>6.25 µg/mL

For reference, 8 entries again:

structure | strain | endpoint | tested at | read by | value
N/C(=N/N=C/c1cccc(Br)c1)c1ccccn1 | H37Rv | MIC |  |  | 64 µg/mL
N/C(=N/N=C/c1ccccc1Br)c1ccccn1 | H37Rv | MIC |  |  | 8 µg/mL
COc1ccccc1NNC(=O)N1CCN(c2nc(N3CCN(c4ccccc4)CC3)c3ccccc3n2)CC1 | H37Rv | MIC |  | BACTEC / fluorescence | >6.25 µg/mL
CC(=O)c1ccccc1NNC(=O)N1CCN(c2nc(N3CCN(c4ccccc4)CC3)c3ccccc3n2)CC1 | H37Rv | MIC |  | BACTEC / fluorescence | >6.25 µg/mL
Clc1ccc2c(c1)NC(c1ccccn1)S2 | H37Rv | MIC |  |  | 0.8 µg/mL
Cc1ccc(/C=C(\C(N)=S)c2nc3cccnc3n2C)c(C)c1 | H37Rv | MIC |  |  | 31.2 µg/mL
COc1ccccc1/C=N/N=C(/N)c1ccccn1 | H37Rv | MIC |  |  | 16 µg/mL
CO[C@H]1/C=C/O[C@@]2(C)Oc3c(C)c(O)c4c(O)c(c(/C=N/N5C(C)CN(C)CC5C)c(O)c4c3C2=O)NC(=O)/C(C)=C\C=C\[C@H](C)[C@H](O)[C@@H](C)[C@@H](O)[C@@H](C)[C@H](OC(C)=O)[C@@H]1C | H37Rv | EC50 |  |  | 0.5 µg/mL

MIC bound comes from a single tested concentration. ECn is the concentration giving n% inhibition of infection, replication or growth. An empty or dashed field is not shown. MIC50, MIC90 and the like: level of inhibition, or share of isolates inhibited. Percent inhibition refers to the dose given; in toxicity tests it is the harm to the cells. a–b is a range or a potency band.